# Data as given in PubChem BioAssay AID1259414 (Drosophila RNAi Screening Center, 2018).
# Assay: 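Host factors increasing or decreasing Wolbachia levels in cultured fly cells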 (primary screen)
# System: Drosophila JW18 cells infected with Wolbachia
# Reagent: long dsRNA against Drosophila genes, 0.25 µg dsRNA per well of a 384-well plate
# Timing: 5 days
# Treatment: cells persistently infected with Wolbachia before knock-down; no added drug
# Measurement: 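Imaged fluorescence in situ signal for Wolbachia 23S rRNA per DAPI-counted host cell, given as a robust z-score within each plate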
# Scale: Wolbachia per cell robust z: higher = more Wolbachia per host cell than the plate typical
# Active means: 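Active if absolute robust z reaches 1.5 in two or more of three replicates, leaving out multi- or no-target dsRNAs, genes unexpressed in JW18 and A1 wells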
# In all, the deposit lists about 24,000 reagents; shown is an unselected part of those that have a named target and a result. Over the whole deposit, about 1,210 (5%) got an active call. 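Inactive calls also include excluded dsRNAs with several or no targets, genes unexpressed in JW18, and well A1, regardless of score.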 Reagent sequences are not shown.
gene knocked down,amplicon,"Wolbachia per cell robust z, rep 1","Wolbachia per cell robust z, rep 2","Wolbachia per cell robust z, rep 3",call
Ttc26,DRSC15591,0.394,0.151,1.1,inactive
Ttc26,DRSC27237,-2.72,0.123,-0.142,inactive
CG4476,DRSC10424,-0.336,0.788,0.563,inactive
CG4476,DRSC25362,-0.309,0.0491,0.288,inactive
CG12395,DRSC19453,-0.611,0.552,-2.1,inactive
ftz-f1,DRSC25015,-0.0506,-2.05,-1.27,inactive
ftz-f1,DRSC37552,-2.89,1.11,1.44,inactive
CG14053,DRSC17908,0.192,0.68,-1.1,inactive
ORY,DRSC22883,-0.173,-0.685,-0.493,inactive
CG13442,DRSC06402,0.208,0.661,0.777,inactive
CG13442,DRSC25909,-1.33,-1.77,-1.5,inactive
PGAP1,DRSC18286,0.665,0.0288,0.654,inactive
PGAP1,DRSC28989,0.816,1.37,-0.105,inactive
Chs2,DRSC11830,0.985,-6.31,0.245,inactive
oc,DRSC25006,-0.178,0.326,-0.535,inactive
CG14537,DRSC02395,-8.5,-0.526,-0.231,inactive
CG14142,DRSC10145,0.398,0.0924,-3.91,inactive
CG14142,DRSC26658,1.02,-0.408,0.0463,inactive
fat-spondin,DRSC07617,0.152,-0.804,-7.63,inactive
CG42526,DRSC41349,-0.124,1.39,-0.886,inactive
zpg,DRSC09702,-0.713,-0.587,-0.207,inactive
zpg,DRSC26258,1.17,0.367,0.968,inactive
Tbca,DRSC15395,0.699,1.48,0.656,inactive
Tbca,DRSC29064,-1.86,-0.722,-0.888,inactive
CG33767,DRSC37933,-0.22,-2.06,-1.46,inactive
ng2,DRSC18803,-4.89,-0.304,-1.52,inactive
CG32066,DRSC10652,0.504,-0.426,0.279,inactive
CG32066,DRSC10653,-0.0477,-0.486,0.423,inactive
Cyp6g1,DRSC07386,0.548,0.498,0.663,inactive
Cyp6g1,DRSC41539,-0.398,-0.179,-1.38,inactive
Sfp78E,DRSC40534,-1.48,0.677,-0.196,inactive
Teh2,DRSC08458,-0.218,0.0101,0.31,inactive
Teh2,DRSC29037,-2.56,-2.22,-1.67,inactive
lncRNA:CR34044,DRSC37789,0.325,0.998,-0.167,inactive
Dred,DRSC11057,1.26,0.41,0.859,inactive
Dred,DRSC11059,-0.405,0.0649,-1.05,inactive
CR33221,DRSC21201,0.444,1.34,0.628,inactive
Boot,DRSC06412,-1.18,-2.81,-0.832,inactive
CG18508,DRSC18155,-0.558,0.275,0.681,inactive
CG18508,DRSC25633,-0.838,-8.32,-3.62,active
lncRNA:CR33938,DRSC37840,0.202,1.32,0.122,inactive
lncRNA:CR33938,DRSC39117,-2.92,-0.443,1.92,inactive
pan,DRSC17176,-0.145,-7.25,1.25,inactive
pan,DRSC22582,-0.371,-0.162,0.507,inactive
pan,DRSC29251,1.36,-0.283,0.297,inactive
CstF50,DRSC15434,-1.19,-0.0137,-3.14,inactive

Targets above whose target name begins with D or d:
gene knocked down,amplicon,"Wolbachia per cell robust z, rep 1","Wolbachia per cell robust z, rep 2","Wolbachia per cell robust z, rep 3",call
Dred,DRSC11057,1.26,0.41,0.859,inactive
Dred,DRSC11059,-0.405,0.0649,-1.05,inactive
